Our source for the Kd values is paper PMC2891834 (PLoS Pathogens, 2010).

To fix the notation:
B1: UBE2D2 F62A, labelled with fluorescein-5-maleimide (enzyme)
chain: not shown
modifications: labelled with fluorescein-5-maleimide (site not stated)
notes: also called UBE2D2 F62A variant; source: E. coli BL21-Gold (DE3), purified (Ni-NTA), then labelled
B2: UBE2D2 R5A, labelled with fluorescein-5-maleimide (enzyme)
chain: not shown
modifications: labelled with fluorescein-5-maleimide (site not stated)
notes: also called UBE2D2 R5A variant; source: E. coli BL21-Gold (DE3), purified (Ni-NTA), then labelled
B3: UBE2D2 K63A, labelled with fluorescein-5-maleimide (enzyme)
chain: not shown
modifications: labelled with fluorescein-5-maleimide (site not stated)
notes: also called UBE2D2 K63A variant; source: E. coli BL21-Gold (DE3), purified (Ni-NTA), then labelled

The target in this experiment is NleG5-1[[…]] (E. coli O157:H7 strain Sakai). The experiment can be described thus: fluorescence polarisation. The note with it: both partners purified.
As to B1, the Kd (in general, the free concentration of one partner at which half of the binding sites on the other are occupied at equilibrium, for simple one-to-one binding) was 36 ± 2 µM.

In turn, B2 came in with a Kd of 326 ± 35 µM. In the case of B3 it was 213 ± 9 µM.
